For the first series, the system named is HIV-1RF. The experiment in a line: XTT cytoprotection assay (antiviral activity). It is filed as cell-based. Particulars: Table 1; in vitro therapeutic index (IC50/EC50). From the text: One exemplary means to determine antiviral activity is with CEM-SS cells and virus (e.g., HIV-1RF) (MOI=0.01) using the XTT (2,3-bis[2-methoxy-4-nitro-5-sulfophenyl]-5-[(phenylamino)carbonyl]-2H-tetrazolium hydroxide) cytoprotection assay, as described by Rice (1993) PNAS 90:9721-9724, and Rice (1997) Antimicrob. Agents Chemother. 41:419-426. Briefly, cells are infected with HIV-1 RF (or other virus to be tested) in the presence of various dilutions of test compounds (thiolesters and controls). The cultures are incubated for seven days. During this time control cultures without protective compounds (i.e., compounds with anti-viral activity) replicate virus, induce syncytia, and result in about 90% cell death. The cell death is measured by XTT dye reduction. XTT is a soluble tetrazolium dye that measures mitochondrial energy output, similar to MTT. Positive controls using dextran sulfate (an attachment inhibitor) or 3′-Azido-2′-3′-dideoxythymidine, AZT (a reverse transcriptase inhibitor) are added to each assay. Individual assays are done in duplicate using a sister plate method.
Effective antiviral concentrations providing 50% cytoprotection (EC50), and cellular growth inhibitory concentrations causing 50% cytotoxicity (IC50) are calculated.
With `Cc1noc(NS(=O)(=O)c2ccc(NC(=O)c3ccccc3SSc3ccccc3C(=O)Nc3ccc(S(=O)(=O)Nc4onc(C)c4C)cc3)cc2)c1C` [Compound 20 D], the TI turned out to be 17.7. `Cc1cc(NS(=O)(=O)c2ccc(NC(=O)c3ccccc3SSc3ccccc3C(=O)Nc3ccc(S(=O)(=O)Nc4cc(C)nc(C)n4)cc3)cc2)nc(C)n1` [Compound 19 D]: the TI is given as 9.6.

On to `O=C(Nc1ccc(S(=O)(=O)Nc2ncccn2)cc1)c1ccccc1SSc1ccccc1C(=O)Nc1ccc(S(=O)(=O)Nc2ncccn2)cc1` [Compound 5 D], for which the TI was determined as 23.2. Take `Cc1cc(C)nc(NS(=O)(=O)c2ccc(NC(=O)c3ccccc3SSc3ccccc3C(=O)Nc3ccc(S(=O)(=O)Nc4nc(C)cc(C)n4)cc3)cc2)n1` [Compound 9 D]: the TI is given as 20.1. The same measure, in the same setting: then `COc1cc(NS(=O)(=O)c2ccc(NC(=O)c3ccccc3SSc3ccccc3C(=O)Nc3ccc(S(=O)(=O)Nc4cc(OC)nc(OC)n4)cc3)cc2)nc(OC)n1` [Compound 6 D], with 25; and `O=C(NS(=O)(=O)c1ccc(-n2sc3ccccc3c2=O)cc1)c1ccccc1` [Compound 3 BITA], with 5.3.

The compound `COc1ccc(NS(=O)(=O)c2ccc(-n3sc4ccccc4c3=O)cc2)nn1` [Compound 12 BITA] yielded a TI of 2.4.

In turn, `O=c1c2ccccc2sn1-c1ccc(S(=O)(=O)Nc2ncccn2)cc1` [Compound 5 BITA] displayed a TI of 7.8. As for `O=c1c2ccccc2sn1-c1ccc(S(=O)(=O)Nc2cnc3ccccc3n2)cc1` [Compound 17 BITA], the TI turned out to be 5.9. The same measure, in the same setting: the result for `COc1cnc(NS(=O)(=O)c2ccc(NC(=O)c3ccccc3SSc3ccccc3C(=O)Nc3ccc(S(=O)(=O)Nc4ncc(OC)cn4)cc3)cc2)nc1` [Compound 8 D] reads 26.2.

`Cc1cc(C)nc(NS(=O)(=O)c2ccc(-n3sc4ccccc4c3=O)cc2)n1` [Compound 9 BITA] returned a TI of 2.5. Compound `COc1cnc(NS(=O)(=O)c2ccc(-n3sc4ccccc4c3=O)cc2)nc1` [Compound 8 BITA] came in with a TI of 3.3.

In the case of `COc1ccnc(NS(=O)(=O)c2ccc(NC(=O)c3ccccc3SSc3ccccc3C(=O)Nc3ccc(S(=O)(=O)Nc4nccc(OC)n4)cc3)cc2)n1` [Compound 7 D], the TI is 13.5. Take `CC(=O)NS(=O)(=O)c1ccc(NC(=O)c2ccccc2SSc2ccccc2C(=O)Nc2ccc(S(=O)(=O)NC(C)=O)cc2)cc1` [Compound 2 D, N,N′-(2,2′-dithiodibenzoyl)-bis-sulfacetamide]: the TI is more than 133. The compound `NS(=O)(=O)c1ccc(NS(=O)(=O)c2ccc(-n3sc4ccccc4c3=O)cc2)cc1` [Compound 22 BITA] displayed a TI of 2.9.

As to `NC(N)=NS(=O)(=O)c1ccc(NC(=O)c2ccccc2SSc2ccccc2C(=O)Nc2ccc(S(=O)(=O)N=C(N)N)cc2)cc1` [Compound 21 D], the TI was more than 2.8. `O=c1c2ccccc2sn1-c1ccc(S(=O)(=O)Nc2ccc(Cl)nn2)cc1` [Compound 4 BITA]: the TI was found to be 2.7. As for `O=C(Nc1ccc(S(=O)(=O)Nc2ccc(Cl)nn2)cc1)c1ccccc1SSc1ccccc1C(=O)Nc1ccc(S(=O)(=O)Nc2ccc(Cl)nn2)cc1` [Compound 4 D], the TI is recorded as 6.3.

The series is the same for the next values; noted with them: Table 2; IC50/EC50.
`NS(=O)(=O)c1ccc(CNC(=O)c2ccccc2SSc2ccccc2C(=O)NCc2ccc(S(N)(=O)=O)cc2)cc1` [Compound 23 D, N,N′-(2,2′-dithiodibenzoyl)-bis-4-(aminomethyl)benzene-sulfonanide] came in with a TI of 58.8. Same read-out and setting: then `NS(=O)(=O)c1ccc(CCNC(=O)c2ccccc2SSc2ccccc2C(=O)NCCc2ccc(S(N)(=O)=O)cc2)cc1` [Compound 24 D, N,N′-(2,2′-dithiodibenzoyl)-bis-4-(2-aminoethyl)benzene-sulfonamide], with 139; and `NS(=O)(=O)c1ccc(Cn2sc3ccccc3c2=O)cc1` [Compound 23 BITA], with 3.9. The compound `NS(=O)(=O)c1ccc(NC(=O)CNC(=O)c2ccccc2SSc2ccccc2C(=O)NCC(=O)Nc2ccc(S(N)(=O)=O)cc2)cc1` [Compound 25 D, N,N′-(2,2′-dithiodibenzoyl)-bis-4-(glycinamido)benzenesulfonamide] yielded a TI of 11.

The series is the same for the next values; noted with them: Table 3; IC50/EC50.
`Nc1ccc(S(=O)(=O)c2ccc(NC(=O)c3ccccc3SSc3ccccc3C(=O)Nc3ccc(S(=O)(=O)c4ccc(N)cc4)cc3)cc2)cc1` [Compound 26 D] showed a TI of more than 73.5. Still for that read-out and setting: the result for `CC(=O)Nc1ccc(S(=O)(=O)c2ccc(NC(=O)c3ccccc3SSc3ccccc3C(=O)Nc3ccc(S(=O)(=O)c4ccc(NC(C)=O)cc4)cc3)cc2)cc1` [Compound 27 D] reads 106.7. On the same count and under the same terms, then `O=c1c2ccccc2sn1-c1ccc(S(=O)(=O)c2ccc(NS(=O)(=O)Cc3ccccc3[N+](=O)[O-])cc2)cc1` [Compound 34 BITA], with 15.1; and `O=C(Nc1ccc(S(=O)(=O)c2ccc(NC(=O)c3ccccc3SSc3ccccc3C(=O)Nc3ccc(S(=O)(=O)c4ccc(NC(=O)c5ccc([N+](=O)[O-])cc5)cc4)cc3)cc2)cc1)c1ccc([N+](=O)[O-])cc1` [Compound 32 D], with more than 4; and `CC(=O)Nc1ccc(S(=O)(=O)Nc2ccc(S(=O)(=O)c3ccc(-n4sc5ccccc5c4=O)cc3)cc2)cc1` [Compound 28 BITA], with 19.6.

As for `O=C(Nc1ccc(S(=O)(=O)c2ccc(NS(=O)(=O)Cc3ccccc3[N+](=O)[O-])cc2)cc1)c1ccccc1SSc1ccccc1C(=O)Nc1ccc(S(=O)(=O)c2ccc(NS(=O)(=O)Cc3ccccc3[N+](=O)[O-])cc2)cc1` [Compound 34 D], the TI is more than 25.7. Still for that read-out and setting: then `O=C(Nc1ccc(S(=O)(=O)c2ccc([N+](=O)[O-])cc2)cc1)c1ccccc1SSc1ccccc1C(=O)Nc1ccc(S(=O)(=O)c2ccc([N+](=O)[O-])cc2)cc1` [Compound 31 D], with more than 26.

The series is the same for the next values; noted with them: Table 4; IC50/EC50.
In turn, `CC(=O)Nc1cccc(S(=O)(=O)c2cccc(NC(=O)c3ccccc3SSc3ccccc3C(=O)Nc3cccc(S(=O)(=O)c4cccc(NC(C)=O)c4)c3)c2)c1` [Compound 36] returned a TI of 95. The same measure, in the same setting: then `Nc1cccc(S(=O)(=O)c2cccc(NC(=O)c3ccccc3SSc3ccccc3C(=O)Nc3cccc(S(=O)(=O)c4cccc(N)c4)c3)c2)c1` [Compound 35], with 81.5.

The series is the same for the next values; noted with them: Table 5; IC50/EC50.
Compound `CC(=O)NS(=O)(=O)c1ccc(NC(=O)c2ccccc2SC(C)=O)cc1` [Compound 40] came in with a TI of 20.3.

`CC(=O)NS(=O)(=O)c1ccc(NC(=O)c2ccccc2SC(=O)CCCCBr)cc1` [Compound 44, N-[2-(5-bromovaleroylthio)benzoyl]sulfacetamide] returned a TI of 49.2.

`CC(=O)NS(=O)(=O)c1ccc(NC(=O)c2cccc(NC(=O)CCCl)c2)cc1` [Compound 38] had a TI of 2.8.

Still in this series, the particulars now being: Table 6; IC50/EC50.
The compound `CC(=O)NS(=O)(=O)c1ccc(NC(=O)c2ccccc2SC(=O)CCCCBr)cc1` [Compound 44, N-[2-(5-bromovaleroylthio)benzoyl]sulfacetamide] registered a TI of 49.2. Regarding `O=C(CCCCBr)Sc1ccccc1C(=O)Nc1ccc(S(=O)(=O)c2ccc([N+](=O)[O-])cc2)cc1` [Compound 46], the TI was found to be 13.6. `O=C(CCCC[n+]1ccccc1)Sc1ccccc1C(=O)Nc1ccc(S(=O)(=O)c2ccc([N+](=O)[O-])cc2)cc1` [Compound 47] registered a TI of more than 57.

The same series, now with this note: Table 10; IC50/EC50.
On to `CC(=O)NS(=O)(=O)c1ccc(NC(=O)c2ccccc2SC(=O)CCCC[n+]2cccc(Cl)c2)cc1` [Compound 57], for which the TI is 4.8. Same read-out and setting: then `CC(=O)NS(=O)(=O)c1ccc(NC(=O)c2ccccc2SC(=O)CCCCC[n+]2ccccc2)cc1` [Compound 55], with 6.5.
